Potato spindle tuber viroid, loop 6: variant abundance in plants

Data from the supplement of Wu et al. 2024, doi:10.1371/journal.ppat.1012142.

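Three N. benthamiana plants were inoculated with the whole mutant pool. Samples came from the inoculated region at 5 days, the leaf margin at 10 and upper systemic leaves at 12.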

PSTVd intermediate strain, loop 6: wild type UGACCGCGAG, pool pattern UNNNCGNNNG; upper and lower strand joined, each 5' to 3', the first 5 letters being the upper strand, closing pairs included.

Numbers give reads per thousand; 0 = not seen among the reads, higher = more abundant. Each value is the mean of three plants. "Pool" is the share in the plasmid pool used as inoculum, on the same scale. The inoculated region was read from the minus strand, the other sites from the plus strand.

UACUCGUCCG (pool 0.118) gave inoculated region 0.0769; leaf margin 0.00773; systemic leaves 0. UUUACGAGCG (pool 0.222) gave inoculated region 0.0831; leaf margin 0; systemic leaves 0. UGUGCGAUAG (pool 0.418) read inoculated region 0.0887; leaf margin 0.0464; systemic leaves 0. With UUCCCGGUUG (pool 0.275) the assay gave inoculated region 0.112; leaf margin 0; systemic leaves 0. UCGGCGCGUG (pool 0.209) gave inoculated region 0.137; leaf margin 0.0168; systemic leaves 0. For UUUACGUCUG (pool 0.275) the result was inoculated region 0.107; leaf margin 0.00920; systemic leaves 0. UCGACGCGAG (pool 0.144) gave inoculated region 0.132; leaf margin 0.0184; systemic leaves 0.0945.

With UGAUCGUUUG (pool 0.392) the assay gave inoculated region 0.0597; leaf margin 0; systemic leaves 0. For UGAACGCGGG (pool 0.196) the result was inoculated region 0.186; leaf margin 0.0169; systemic leaves 0. UCGACGUAUG (pool 0.340) read inoculated region 0.125; leaf margin 0.101; systemic leaves 0. UGGGCGAAGG (pool 0.0784) gave inoculated region 0.0712; leaf margin 0.00773; systemic leaves 0. For UACUCGCGCG (pool 0.222) the result was inoculated region 0.0889; leaf margin 0.00920; systemic leaves 0. UUUUCGGACG (pool 0.261) read inoculated region 0.0824; leaf margin 0; systemic leaves 0. UGCCCGAGUG (pool 0.222) read inoculated region 0.113; leaf margin 0; systemic leaves 0.

For UUUUCGAGUG (pool 0.209) the result was inoculated region 0.0769; leaf margin 0; systemic leaves 0. For UGAACGUCGG (pool 0.261) the result was inoculated region 0.162; leaf margin 0.0169; systemic leaves 0. UAGCCGAGUG (pool 0.235) gave inoculated region 0.149; leaf margin 0.00841; systemic leaves 0. UCCCCGCACG (pool 0.235) gave inoculated region 0.0955; leaf margin 0.0155; systemic leaves 0. For UAUUCGAUGG (pool 0.484) the result was inoculated region 0.0655; leaf margin 0; systemic leaves 0.00684. For UGUCCGUGUG (pool 0.366) the result was inoculated region 0.106; leaf margin 0; systemic leaves 0.00673. UCUACGCUAG (pool 0.0784) gave inoculated region 0.0715; leaf margin 0.00920; systemic leaves 0.

With UUAUCUGUGG (pool 0.0131) the assay gave inoculated region 0; leaf margin 0; systemic leaves 0. UUCGCGAUAG (pool 0.340) read inoculated region 0.107; leaf margin 0.0541; systemic leaves 0.00673. UAAGCGACCG (pool 0.170) gave inoculated region 0.0598; leaf margin 0; systemic leaves 0. UGCGCGAGAG (pool 0.209) gave inoculated region 0.173; leaf margin 0.00773; systemic leaves 0. UAACCGUAUG (pool 0.248) gave inoculated region 0.148; leaf margin 0.147; systemic leaves 0. UCACCGGGCG (pool 0.144) gave inoculated region 0.0901; leaf margin 0; systemic leaves 0.

Extract of 3 entries:

sequence,pool,inoculated region,leaf margin,systemic leaves
UGAACGUCGG,0.261,0.162,0.0169,0
UGUCCGUGUG,0.366,0.106,0,0.00673
UCACCGGGCG,0.144,0.0901,0,0

For reference, wild type rose from 20.7 per thousand in the pool to 195, 198, 203 (inoculated region), 629, 591, 734 (leaf margin) and 942, 870, 868 (systemic leaves). Samples held 36,220 to 57,551 reads, so the smallest values rest on one or two reads. Sequences that differ at fixed positions probably stem from PCR or sequencing errors, and defective variants can be carried along by functional ones.